PubChem BioAssay AID1745844 (Carcinogenic Potency Database (CPDB), 2022)

System: rodent lifetime carcinogenesis bioassay, tumor incidence TD50
Assay: carcinogenic potency in animals, long-term in vivo studies, CPDB compilation (AID 1745844)
Settings: rat, strain Fischer 344, by gavage, dosed 104 weeks

`[Cl-].[Cl-].[Ti+4].c1cc[cH-]c1.c1cc[cH-]c1` gave a TD50 (females, site: forestomach, lesion: squamous-cell papilloma, study length 106 weeks) of 378 mg/kg/day, a TD50 (females, site: liver, lesion: hepatocellular adenoma + hepatocellular carcinoma + neoplastic nodule, study length 106 weeks) of 378 mg/kg/day and a TD50 (males, site: any site (literature study), lesion: several types, types named in the paper, study length 105 weeks) of 40 mg/kg/day. For the same compound, the TD50 (males, site: forestomach, lesion: squamous-cell papilloma, study length 105 weeks) was 88.6 mg/kg/day, the TD50 (males, site: liver, lesion: hepatocellular adenoma + hepatocellular carcinoma + neoplastic nodule, study length 105 weeks) was 143 mg/kg/day and the TD50 (males, site: multiple organs, lesion: mesothelioma, malignant, study length 105 weeks) was 158 mg/kg/day. For the same compound, the TD50 (males, site: pancreas, lesion: acinar-cell adenoma, study length 105 weeks) was 97.6 mg/kg/day.
